Measurements taken from publication doi:10.1101/2024.06.06.597810 (2024).

T1: Biotin-labeled BtRf-BetaCoV stem helix peptide (BtRf-BetaCoV, biotin (position not given))
T1 chain: DSFKQELDKYFKNH

B1: S2P6 UCA VH Y32Q Fab (Fab, V domains shown)
VH: QVQLVQSGAEVKKPGASVKVSCKASGYTFTSQYMHWVRQAPGQGLEWMGIINPSGGSTSYAQKFQGRVTMTRDTSTSTVYMELSSLRSEDTAVYYCARGSPKGAFDYWGQGTLVTVSS
VL: not shown
B2: S2P6 UCA VH M48I Fab (Fab, V domains shown)
VH: QVQLVQSGAEVKKPGASVKVSCKASGYTFTSYYMHWVRQAPGQGLEWIGIINPSGGSTSYAQKFQGRVTMTRDTSTSTVYMELSSLRSEDTAVYYCARGSPKGAFDYWGQGTLVTVSS
VL: not shown
B3: S2P6 UCA VH S56H Fab (Fab, V domains shown)
VH: QVQLVQSGAEVKKPGASVKVSCKASGYTFTSYYMHWVRQAPGQGLEWMGIINPSGGHTSYAQKFQGRVTMTRDTSTSTVYMELSSLRSEDTAVYYCARGSPKGAFDYWGQGTLVTVSS
VL: not shown
B4: S2P6 UCA VH Y32Q/M48I double mutant Fab (Fab, V domains shown)
VH: QVQLVQSGAEVKKPGASVKVSCKASGYTFTSQYMHWVRQAPGQGLEWIGIINPSGGSTSYAQKFQGRVTMTRDTSTSTVYMELSSLRSEDTAVYYCARGSPKGAFDYWGQGTLVTVSS
VL: not shown

Target: T1, Biotin-labeled BtRf-BetaCoV stem helix …

In order of falling Kd:
1. B1  2.56 µM
2. B2  0.938 µM
3. B3  0.865 µM
4. B4  0.189 µM
